Measured values reported in patent US20080194611A1, “Modulation of Cell Barrier Dysfunction” (priority 2005, published 2008).

What was measured:
[1] = system: PA-I lectin/adhesin expression in P. aeruginosa 27853/PLL-EGFP; experiment: PA-I lectin/adhesin expression, fluorescence of GFP-PA-I reporter strain
P. aeruginosa biofilm = experiment: Biofilm formation assay; type: cell-based, Pseudomonas aeruginosa
P. aeruginosa = experiment: Bacterial growth; type: cell-based, Pseudomonas aeruginosa; details: TSB media
[2] = system: PA-I lectin/adhesin expression in P. aeruginosa PA27853 and PAO1; details: strains PA27853 and PAO1
[3] = system: pyocyanin (PCN) production in P. aeruginosa; experiment: Pyocyanin assay; type: cell-based, Pseudomonas aeruginosa
MDCK cells = experiment: TEER of MDCK cells apically exposed to PA27853 with opioid agonists; type: cell-based; details: apical exposure to PA27853 plus agonist

trans-3,4-dichloro-N-methyl-N[2-(1-pyrrolidinyl)cyclohexyl]benzeneacetamide methanesulfonate
PA-IL expression (fluorescence) ([1]; 27853/PLL-EGFP, 9 hours of growth in HDMEM media): Marked fluorescence was observed | PA-I expression judged by fluorescence of the GFP reporter strain ([1]; PA27853/PLL-EGFP, opioid agonists): greatest effect on PA-I expression | biofilm production (P. aeruginosa biofilm; PA27853): about 150 % of PA27853 induction | biofilm formation (P. aeruginosa biofilm; PAO1): enhanced biofilm formation in PAO1 in a concentration-dependent manner | effect on bacterial growth (P. aeruginosa): Neither compound had an effect on bacterial growth | response to express PA-I [2]: induce a robust response | PCN production in ΔPhnA and ΔPqsA [3]: slight increase in PCN production | PCN production in ΔPhzA1 [3]: produced no PCN even when exposed to U-50,488 | dynamic tracking of PCN production in ΔMvfR/mvfR [3]: demonstrated a shift in PCN production at lower cell densities | dynamics of PCN production in ΔGacA/gacA [3]: delayed PCN production | PCN production versus cell density ([3]; PAO1): shift in the production of PCN at lower cell densities | PCN production ([3]; PAO1 and 27853, overnight exposure, OD520): induced a dose-dependent effect on PCN production | PCN production in ΔMvfR/mvfR ([3]; complemented mutant): further increased the already elevated PCN production | PCN response of MvfR mutant 121-332 ([3]; defective in the DNA-binding domain): did not respond to U-50,488 or C4-HSL | PCN production in ΔGacA and ΔMvfR ([3]; gacA and mvfR mutants): could not restore PCN production | PCN production in QS mutants ([3]; lasR, lasI, rhlI, rhlR mutants): did not restore PCN production | PCN production in ΔGacA/gacA ([3]; overnight, 1 mM U-50,488 or 100 μM C4-HSL): decreased, albeit minimally | PCN response of MvfR mutants 1-292, 1-291, 1-283 ([3]; substrate binding domain affected): did not respond to U-50,488 and C4-HSL | PCN response of MvfR mutants 1-299 and 1-293 ([3]; substrate binding domain intact): responded to U-50,488 and C4-HSL with enhanced PCN production | additional TEER decrease (MDCK cells): 20%
